Source: US20210388031A1 (New Jersey Institute of Technology, published 2021)

Biological target: SARS-CoV-2 Spike protein on live virus (SARS-CoV-2, UniProt P0DTC2)
Test: cell-based or functional assay

Row | Binder | Plaque Reduction (10 µM, n-4) [%]
1 | SALEEQLKTFLDKFMHELEDLLYQLAL [SBP2] | 88
2 | ESLSLSLSLSLSLEGSALEEGQLKTFLDKFMHELEDLLYQLAL [ESBP2] | 74
3 | ESLSLSLSLSLSLEGIEEQAKTFLDKFNHEAEDLFYQS [ESBP1] | 84
